The text below walks through data of paper PMC5815094.

Construct, isoform or probe ends are uncertain for at least one entry. For part of these data: A negative result means that nothing was seen under these conditions. For part of these data: At least one verdict rests on a figure or table, not on a statement of the authors. For part of these data: Tags and fusion partners may be left off the protein sequences shown.

The test system of series [1] is Hfq + Crc. Description: co-IP (anti-Hfq). The conditions noted are these: no ternary complex: Crc not captured, Hfq-RNA binding not read out, ES buffer: 10 mM Tris pH 8.0, 10 mM KCl, 40 mM NaCl, 1 mM MgCl2, recombinant protein.
Series [2] addresses T1, Crc (Pseudomonas aeruginosa PAO1) (UniProt Q51380).
T1 sequence (looked up, limits assumed): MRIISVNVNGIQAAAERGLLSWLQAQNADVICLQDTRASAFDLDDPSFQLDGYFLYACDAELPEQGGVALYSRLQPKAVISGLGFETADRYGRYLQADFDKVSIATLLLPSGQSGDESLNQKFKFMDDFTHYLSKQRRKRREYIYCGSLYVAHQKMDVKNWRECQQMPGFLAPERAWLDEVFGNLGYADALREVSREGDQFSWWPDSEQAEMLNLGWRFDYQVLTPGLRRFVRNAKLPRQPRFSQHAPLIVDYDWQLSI
Description: MST. The conditions noted are these: 200 nM labelled Crc, no Hfq; ES buffer: 10 mM Tris pH 8.0, 10 mM KCl, 40 mM NaCl, 1 mM MgCl2; MST + 0.05% Tween-20, room temperature; recombinant protein; protein details: His6-tag (N-terminal) removed with HRV14-3C; label: 5'-32P (EMSA), 5'-6-FAM (Fig 6D), unlabelled (MST). On the technique in general: Mobility shift assays separate free from complexed probe on a gel.

Series [3] deals with Hfq + Crc. Description: SEC-MALS. The note with it: ES buffer, not 1:1:1 stoichiometry; ES buffer: 10 mM Tris pH 8.0, 10 mM KCl, 40 mM NaCl, 1 mM MgCl2; recombinant protein; label: 5'-32P (EMSA), 5'-6-FAM (Fig 6D), unlabelled (MST).
Series [4] concerns the target Hfq (Pseudomonas aeruginosa PAO1) (UniProt Q9HUM0). Description: EMSA dissociation (competition). The conditions noted are these: 80 nM Hfq6, 100 nM unlabelled amiE6ARN, 15-120 s, no Crc; ES buffer: 10 mM Tris pH 8.0, 10 mM KCl, 40 mM NaCl, 1 mM MgCl2; EMSA + 25 ng tRNA per 10 ul, 37 C 15 min (Fig 6D); recombinant protein; label: 5'-32P (EMSA), 5'-6-FAM (Fig 6D), unlabelled (MST).

Series [5] has as its system Hfq + Crc. Put plainly: MST. The conditions noted are these: Hfq titrated, 500 nM amiE6ARN and 1 uM Crc present; ES buffer: 10 mM Tris pH 8.0, 10 mM KCl, 40 mM NaCl, 1 mM MgCl2; MST + 0.05% Tween-20, room temperature; recombinant protein; label: 3'-pCp-Cy5 (MST, EMSA), unlabelled (co-IP); probe letters rebuilt from the primers and the genome.

For UUUUUUUUUUUUUU [poly(U)14], the binding result in the series with Hfq + Crc [1] is “no binding”.

In the case of AAAAAUAACAACAAGAGG [amiE6ARN], the binding result in series [2] was “no binding”; in the series on Hfq + Crc [3], “binds”; in series [4], “binds”.

For orientation: Kd means the concentration at which binding is half-saturated. With “GGACUGGUCGCGAGGCCAGCAGGUAAGCUGAGAGACCAAGCAGUCGGACUCUUCAGAUUAUCUCCUCAUCAGGCUAAUCACGGUUUCGACCCGGCACUUUGCCGGGUCUUUUUUUG [PrrF2 sRNA]”, the Kd in the series with Hfq + Crc [5] worked out at 35 nM. In addition, the binding result with Hfq + Crc [1] (label: 3'-pCp-Cy5 (MST, EMSA), unlabelled (co-IP), probe letters rebuilt from the primers and the genome) is reported as “no binding”.
